For at least one entry, the source does not settle the construct or the ends of the probe. At least one verdict was read from the data and is not stated in words by the source.
Tested on: PhoB + TctD
Test: EMSA
Details: 30 uM TctD plus PhoB, slight supershift; EMSA: 20 ng probe, 15 ul, 20 mM Tris-HCl pH 7.5, 50 mM NaCl, 1 mM EDTA, 1 mM DTT, 100 ug/ml BSA, 150 ng/ul poly(dIdC), 5% glycerol, room temperature 30 min; recombinant protein; label: 5' IRDye700; probe letters rebuilt from the primers and the genome

**Q.** Does “GCATCCTGCCGAGGGTGCCAGCGTTGAACAACGGCGCGTTACATCCGGCGACAATGTCATACAAGCATCACGCCCCTGTCACAGGGGTGACACCGCGCCTTCCTAGCCTGAGCTTGCACAACAAAGCCGAGCGGCCGCAACCCGCGGCGCCGGCCCAAGGAGGCCCAGGC (double strand) [PA14_56560 promoter]” bind?
**A.** binds
